# Percent effect of library compounds

The values are deposited in ChEMBL (CHEMBL3988442, “University of Dundee, Small-Polar-MMV Screening Library” (2021)).

Mtb glucose medium: 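Whole-cell growth test on Mycobacterium tuberculosis, read after 3 days in glucose-containing 7H9 medium; the read-out is not stated. Concentration: 50 µM. The record gives no direction; compounds that gave an IC50 in retests scored well above the rest, so higher reads as more growth inhibition. Size under these conditions: about 69,000 compounds, about 760 of them at 50% or above in at least one test.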
Mtb cholesterol medium: 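Whole-cell growth test on Mycobacterium tuberculosis, read after 4 days in a medium based on cholesterol and the lipid DPPC; the read-out is not stated. Tested at 50 µM. Direction is inferred from retests: higher values go with more growth inhibition. Of about 69,000 compounds tested this way, about 370 (0.54%) reached 50% or more in at least one test.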

The filed quantity is “Percent Effect” (%). How 0% and 100% were set is not recorded. Most values in the screen are low, and negative values occur. The entries come from a sample that favours strong results. Two or more numbers in one place are separate tests of the same structure; such repeats can differ widely. A dash means the value is not listed here; it may have been measured.

* O=C(NCC1CC1)c1nnc2ccc(Cl)cc2n1 | Mtb glucose medium: 71.3% & 75.77%; Mtb cholesterol medium: 63.41%
* CCCn1nccc1C(=O)Nc1ncc(C)s1 | Mtb glucose medium: -18.8% & 14.15%
* Clc1ccc(C2(CNC3=NCCN3)CCCC2)cc1.I | Mtb glucose medium: 55.47%
* CCCc1ccc(OC23CCCN(CC2)C3)c(OC)c1 (stereo unspecified) | Mtb glucose medium: 73.34%; Mtb cholesterol medium: 66.9%
* COCCn1ccc2c(NC(=O)c3n[nH]c4c3CCC4)cccc21 | Mtb glucose medium: 50.63%
* CCc1noc(C)c1C(=O)NCc1ccccn1 | Mtb glucose medium: 4.974% & -18.55%; Mtb cholesterol medium: -16.86%
* COCCN(Cc1ccoc1)C(=O)CSc1ccc(F)cc1 | Mtb glucose medium: 0.1393%
* Cc1cccc(-c2noc([C@@H]3Cc4nc[nH]c4CN3)n2)c1 | Mtb glucose medium: 41.68% & 51.53%
* CCN(CC)C(=O)CSc1nnc(CCNC(=O)OC(C)(C)C)o1 | Mtb glucose medium: -4.775%; Mtb cholesterol medium: -17.24%
* CC1CCN(C(=O)C2CCN(c3ccc(Cl)cc3C#N)CC2)CC1 | Mtb glucose medium: 13.59% & 26.85%
* CCN(CC)CCn1c(=O)oc2ccccc21.Cl | Mtb cholesterol medium: 0.625%
* CCCn1nc(-c2nc(COC)no2)ccc1=O | Mtb glucose medium: -6.308%
* Fc1cccc(-c2cccc(N3CCC(NC4CCCOC4)CC3)c2)c1 (stereo unspecified) | Mtb glucose medium: 61.92%; Mtb cholesterol medium: 68.98%
* NC(=O)Cn1c(SCc2noc(-c3ccsc3)n2)nnc1C1CC1 | Mtb glucose medium: 8.609% & -2.494%
* Cl.Cl.Fc1cccc(-c2c[nH]c(C3CCCN3)n2)c1 (stereo unspecified) | Mtb glucose medium: -3.202%
* CCC(=O)N1CCN(C(=O)CCn2cccn2)CC1 | Mtb glucose medium: 7.324%
* [H][C@]12CC[C@]([H])(CN(c3ncnc4ccsc34)C1)N(CC1CC1)C2=O | Mtb glucose medium: 21.41% & 112.2%
* O=C(C1CC1)N1CCC(Oc2ccccc2Cl)CC1 | Mtb glucose medium: 31.53% & -0.3964%; Mtb cholesterol medium: 2.897%
* COc1ccccc1-n1c(C)cc(CNC(=O)NC(C)C)c1C | Mtb glucose medium: -7.408%
* Cc1cnn(CCNc2cnc3ccccc3n2)c1 | Mtb glucose medium: 5.619%
* CC(C)Nc1nc(N2CCCC2)nc2c1CN(C(C)C)CC2 | Mtb glucose medium: 65.99%
* CC1COCCN1Cc1nc(-c2cccc(C(F)(F)F)c2)no1 (stereo unspecified) | Mtb glucose medium: 1.924% & 5.358%; Mtb cholesterol medium: -7.232%
* Cc1noc(CNc2ccc(C(=O)N3CCCC(C)C3)cc2C)n1 (stereo unspecified) | Mtb glucose medium: 5.978%; Mtb cholesterol medium: 7.479%
* COc1ccc(OCc2nccc(-c3cc(C(=O)O)ccn3)n2)cc1 | Mtb cholesterol medium: 18.21%
* Cc1nc(COCc2cnc3n2CCN(C)C3C)cs1.O=C(O)C(F)(F)F (stereo unspecified) | Mtb glucose medium: -9.801% & -3.505%
* CCOc1ccc(N2CCCN=C2NC(=O)c2cccc(Cl)c2)cc1 | Mtb glucose medium: -18.98%
* Cc1nc(C2CCCN(C(=O)c3cccc(S(C)(=O)=O)c3)C2)no1 (stereo unspecified) | Mtb glucose medium: 26.47%
* CCC(C)NC(=O)c1nnn(-c2ccc(Br)cc2)n1 (stereo unspecified) | Mtb glucose medium: 35.4%
* CC(C)c1nc(CSc2nnc(-c3cccs3)n2CC(N)=O)no1 | Mtb glucose medium: 55.45%
* CN1CCOC(CNCCOc2cccc(C#N)c2)C1 (stereo unspecified) | Mtb cholesterol medium: -0.5242% & 79.98%
* CCOCC1CCN(C(=O)C(c2c(F)cccc2F)N(C)C)CC1 (stereo unspecified) | Mtb cholesterol medium: -23.43%
* CC(C)CC(C(=O)N(C)Cc1ncnn1C)N1CCCCC1=O (stereo unspecified) | Mtb cholesterol medium: 70.25%
* COc1cccc2c1CCCCN2C(=O)c1oc(C)nc1C | Mtb cholesterol medium: 72.92%
* O=C1CC2(CCSC2)C(=O)N1Cc1ncc(-c2ccccc2)o1 (stereo unspecified) | Mtb glucose medium: 31.23% & 51.15%
* CCc1nc(NC2CCCN(C(=O)c3cccs3)C2)c2cnn(C)c2n1 (stereo unspecified) | Mtb cholesterol medium: 51.85%
* c1cncc(-c2nc(C3CC3)ncc2-c2ccnc(N3CCCC3)n2)c1 | Mtb glucose medium: 56.91%

Some entries from above, unchanged:

compound,Mtb glucose medium,Mtb cholesterol medium
CC1CCN(C(=O)C2CCN(c3ccc(Cl)cc3C#N)CC2)CC1,13.59% & 26.85%,-
Cc1cnn(CCNc2cnc3ccccc3n2)c1,5.619%,-